A mixed list of measured activities; the numbers were collected in NIAID ChemDB.

All rows: tests on isolated targets; agent: Pneumocystis carinii

Percent inhibition refers to the dose given; in toxicity tests it is the harm to the cells. ICn: concentration for n% inhibition. Conditions beyond the fields shown may differ between rows. Two numbers with a dash give a range or band. An empty or dashed field is not shown.

compound,protein,read-out,dose,result
N=C(N)c1ccc(-c2ccc(-c3ccc(C(=N)N)cc3)o2)cc1,Ergosterol,IC50,-,58 µM
Cl.Cl.Cl.O.c1cc(-c2ccc(C3=NCCN3)cc2)nc(-c2ccc(C3=NCCN3)cc2)n1,Topoisomerase II,IC50,-,3000–6000 µM
Cn1c2ccc(C3=NCCCN3)cc2c2cc(C3=NCCCN3)ccc21,Topoisomerase II,IC50,-,10–50 µM
c1cc(-c2ccc(-c3ccc(C4=NC5CCCCC5N4)cc3)o2)ccc1C1=NC2CCCCC2N1,Ergosterol,IC50,-,248 µM
CCOc1cccc2nc(N)nc(N)c12,DHFR,IC50,-,4.7 µM
CC(C)N/N=C/c1ccc(-c2ccnc(-c3ccc(/C=N/NC(C)C)cc3)n2)cc1,Topoisomerase II,IC50,-,3000–12000 µM
COc1cc(CNc2ccc3nc(N)[nH]c(=O)c3c2)cc(OC)c1OC,Thymidylate synthetase,IC50,-,>210 µM
COc1cccc(OC)c1C1c2c(nc(N)[nH]c2=O)OC1[N+](=O)[O-],DHFR,IC50,-,100 µM
NC(=NC1CC1)c1ccc(-c2ccc(-c3ccc(C(N)=NC4CC4)cc3)o2)cc1,Ergosterol,IC50,-,36 µM
Nc1nc(N)c2ccc(C(F)(F)F)cc2n1,DHFR,IC50,-,31 µM
COc1cc(C2COc3nc(N)nc(N)c32)cc(OC)c1OC,DHFR,IC50,-,>300 µM
CC1(C)C2Cc3c(N)nc(N)nc3C1C2,Dihydrofolate reductase,IC50,-,77 µM
c1cc2[nH]c(-c3ccc4c(c3)[nH]c3cc(-c5nc6cc(C7=NCCN7)ccc6[nH]5)ccc34)nc2cc1C1=NCCN1,Topoisomerase II,IC50,-,25 µM
Nc1nc(N)c2nc(Cc3ccc4ccccc4c3)c(Cc3ccc4ccccc4c3)nc2n1,DHFR,IC50,-,4 µM
NC(=NC1CCC1)c1ccc(-c2ccc(-c3ccc(C(N)=NC4CCC4)cc3)o2)cc1,Ergosterol,IC50,-,25 µM
Nc1nc2ccc(NCc3cccnc3)cc2c(=O)[nH]1,Thymidylate synthetase,IC50,-,42 µM
Nc1nc(N)c2c(n1)C1CCC2C1,Dihydrofolate reductase,IC50,-,117 µM
Cn1c2cc(C3=NCCN3)ccc2c2ccc(C3=NCCN3)cc21,Topoisomerase II,IC50,-,50 µM
Nc1nc(N)c2c(C(F)(F)F)cccc2n1,DHFR,IC50,-,82 µM
CCOC(=O)c1c(-c2ccc(C(N)=NC3CC3)cc2)oc(-c2ccc(C(N)=NC3CC3)cc2)c1C,Ergosterol,IC50,-,117 µM
CC(=O)NS(=O)(=O)c1ccc(N=Nc2c(O)n(-c3ccccc3)n(-c3ccccc3)c2=O)cc1,DHPS,IC50,-,454.4 µM
Nc1nc2c(c(=O)[nH]1)C(c1ccc(Cl)cc1)C([N+](=O)[O-])O2,DHFR,IC50,-,21 µM
CC(=O)Nc1ccc(S(=O)(=O)Nc2ccc3oc(=O)[nH]c3c2)cc1,DHPS,IC50,-,601.6 µM
Cn1c2ccc(C3=NCCCN3)cc2c2cc(C3=NCCCN3)ccc21,Ergosterol,IC50,-,147 µM
COc1cc(N(C)Cc2csc3nc(N)nc(N)c23)cc(OC)c1OC,DHFR,inhibition,10 µM,<30%
Nc1nc(N)c2cc(Cl)ccc2n1,DHFR,IC50,-,3.6 µM
c1cc(-c2ccc(-c3ccc(C4=NCCN4)cc3)o2)ccc1C1=NCCN1,Ergosterol,IC50,-,310 µM
c1cc2c(cc1C1=NCCN1)c1cc(C3=NCCN3)ccc1n2CC1CCCCC1,Topoisomerase II,IC50,-,5–10 µM
CN(C)CCCOc1ccc(C(=O)c2ccc(Cl)cc2)cc1,Oxidosqualene cyclase,inhibition,10 µM,4%
Nc1nc(N)c2c(n1)CC1CC(=O)CC2C1,Dihydrofolate reductase,IC50,-,260 µM
Nc1nc(N)c2ccc(Br)cc2n1,DHFR,IC50,-,12 µM
O=c1[nH]cnc2c1ncn2[C@@H]1O[C@H](CO)[C@@H](O)[C@H]1O,DHPS,inhibition,10 µM,0%
c1cc2[nH]c3ccc(C4=NCCN4)cc3c2cc1C1=NCCN1,Ergosterol,IC50,-,107 µM
c1cc2[nH]c3ccc(C4=NCCN4)cc3c2cc1C1=NCCN1,Topoisomerase II,IC50,-,100 µM
CC(=O)NS(=O)(=O)c1ccc(NC(=O)c2ccccc2C(=O)O)cc1,DHPS,IC50,-,109 µM
CC(C)N=C(N)c1ccc2[nH]c3ccc(C(N)=NC(C)C)cc3c2c1,Ergosterol,IC50,-,>500 µM
CC(C)N=C(N)c1ccc2[nH]c3ccc(C(N)=NC(C)C)cc3c2c1,Topoisomerase II,IC50,-,5–10 µM

5 of the rows above, restated:

compound	protein	read-out	dose	result
c1cc2[nH]c3ccc(C4=NCCN4)cc3c2cc1C1=NCCN1	Ergosterol	IC50	-	107 µM
Cl.Cl.Cl.O.c1cc(-c2ccc(C3=NCCN3)cc2)nc(-c2ccc(C3=NCCN3)cc2)n1	Topoisomerase II	IC50	-	3000–6000 µM
CN(C)CCCOc1ccc(C(=O)c2ccc(Cl)cc2)cc1	Oxidosqualene cyclase	inhibition	10 µM	4%
c1cc2[nH]c3ccc(C4=NCCN4)cc3c2cc1C1=NCCN1	Topoisomerase II	IC50	-	100 µM
COc1cc(C2COc3nc(N)nc(N)c32)cc(OC)c1OC	DHFR	IC50	-	>300 µM